# Source: PubChem BioAssay AID1224856 (National Center for Advancing Translational Sciences (NCATS), 2016)
# This is a selection; strong and weak results do not stand in their true shares. Inconclusive results are not listed. Calls of active or inactive are those of the source. The call rests on the fitted dose curve; in most records, active means well fitted curve in the direction sought with a large enough effect; inconclusive means small, poorly fitted or top-dose-only effect, or another doubt; inactive means no such curve, though single readings can be large or run the other way.
# Assay: Cell viability assay for measurement of the protective activity of small molecules against cell death caused by Zika virus infection in human astrocytes
# Settings: human astrocytes ZIKV-induced death, ATP luminescence, 72 h; at 46.1 µM (top of the series)
# Text: National Center for Advancing Translational Sciences [NCATS] Johns Hopkins University School of Medicine Florida State University Assay Overview: Zika virus infection causes cell death in certain cell types including human neural progenitor cells (hNPCs), astrocytes, and astrocytoma cell line (SNB-19). This cell viability assay measures the ATP content (level) in human astrocytes using a luminescence readout that is proportional to viable cell numbers. Decrease in the luminescence signal after Zika virus infection indicates the cell death caused by Zika virus. Small molecule inhibitors […] the decreased luminescence signal after Zika virus infection, indicating the protective effect of that small molecule on the cell death caused by Zika virus infection. This observed protective effect of small molecules against Zika virus induced cell death may result from inhibition of virus replication or cellular response to the virus infection.
# Assay Protocol Summary: The medium for astrocytes contains AM basal medium (ScienCell, Cat.# 1801), AGS (ScienCell, Cat.# 1801), 10% FBS, and 1% Pen/Strep. […] The luminescence intensity of the assay plates was measured using a ViewLux plate reader (PerkinElmer). […] The percentage inhibitions of the decreased cell viability by small molecule inhibitors were then calculated.
row,Compound,protection from virus-induced death
1,CCOP(=O)(CC)Oc1ccc([N+](=O)[O-])cc1 (configuration not stated),inactive: 6.7%
2,C/C1=C2N=C(/C=C3N=C(/C(C)=C4\[N-][C@@](C)([C@@H]5N=C1[C@](C)(CCC(=O)NC[C@@H](C)OP(=O)([O-])O[C@H]1[C@@H](O)[C@@H](n6cnc7cc(C)c(C)cc76)O[C@@H]1CO)[C@H]5CC(N)=O)[C@@](C)(CC(N)=O)[C@@H]4CCC(N)=O)[C@@](C)(CC(N)=O)[C@@H]\3CCC(N)=O)C(C)(C)[C@@H]/2CCC(N)=O.[C-]#N.[Co+3],inactive: -2.53%
